PubChem BioAssay AID1259414 | Drosophila RNAi Screening Center, 2018
The screen tested about 24,000 reagents; below is an unselected part of those that have a named target and a result. In the full data, about 1,210 (5%) are marked active. 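Inactive calls also include excluded dsRNAs with several or no targets, genes unexpressed in JW18, and well A1, regardless of score.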 Reagents against one gene are numbered here. Reagent sequences are not shown.

Test: 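Genome-wide screen for host control of endosymbiont load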 (primary screen)
Cell system: Drosophila JW18 cells infected with Wolbachia
Reagent: long dsRNA against Drosophila genes, 0.25 µg dsRNA per well of a 384-well plate
Time to read-out: 5 days
Conditions: cells persistently infected with Wolbachia before knock-down; no added drug
Measured: 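Imaged fluorescence in situ signal for Wolbachia 23S rRNA per DAPI-counted host cell, given as a robust z-score within each plate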
Direction: Wolbachia per cell robust z: higher = more Wolbachia per host cell than the plate typical
Call rule: 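Active if absolute robust z reaches 1.5 in two or more of three replicates, leaving out multi- or no-target dsRNAs, genes unexpressed in JW18 and A1 wells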

Cog8 (Component of oligomeric golgi complex 8)
- Wolbachia per cell robust z, rep 1: 0.0369
- Wolbachia per cell robust z, rep 2: -0.0674
- Wolbachia per cell robust z, rep 3: -11.5
- Call: inactive

CG32719 #1
- Wolbachia per cell robust z, rep 1: -0.0433
- Wolbachia per cell robust z, rep 2: -0.403
- Wolbachia per cell robust z, rep 3: -0.329
- Call: inactive

CG32719 #2
- Wolbachia per cell robust z, rep 1: -5.61
- Wolbachia per cell robust z, rep 2: 0.985
- Wolbachia per cell robust z, rep 3: -1.02
- Call: inactive

RhoGAP5A (Rho GTPase activating protein at 5A) #1
- Wolbachia per cell robust z, rep 1: -1.14
- Wolbachia per cell robust z, rep 2: -0.808
- Wolbachia per cell robust z, rep 3: -8.16
- Call: inactive

RhoGAP5A (Rho GTPase activating protein at 5A) #2
- Wolbachia per cell robust z, rep 1: 0.552
- Wolbachia per cell robust z, rep 2: -1.52
- Wolbachia per cell robust z, rep 3: -1.32
- Call: inactive

RhoGAP5A (Rho GTPase activating protein at 5A) #3
- Wolbachia per cell robust z, rep 1: -4.22
- Wolbachia per cell robust z, rep 2: 0.359
- Wolbachia per cell robust z, rep 3: 0.871
- Call: inactive

retn (retained) #1
- Wolbachia per cell robust z, rep 1: -2.01
- Wolbachia per cell robust z, rep 2: -1.43
- Wolbachia per cell robust z, rep 3: -0.682
- Call: inactive

retn (retained) #2
- Wolbachia per cell robust z, rep 1: 0.997
- Wolbachia per cell robust z, rep 2: -0.0891
- Wolbachia per cell robust z, rep 3: 0.0956
- Call: inactive

CG7579
- Wolbachia per cell robust z, rep 1: 0.0257
- Wolbachia per cell robust z, rep 2: -1.26
- Wolbachia per cell robust z, rep 3: 0.24
- Call: inactive

Acp24A4 (Accessory gland protein 24A4)
- Wolbachia per cell robust z, rep 1: -1.39
- Wolbachia per cell robust z, rep 2: -0.908
- Wolbachia per cell robust z, rep 3: -0.943
- Call: inactive

Phs (Phaser) #1
- Wolbachia per cell robust z, rep 1: -1.59
- Wolbachia per cell robust z, rep 2: 0.989
- Wolbachia per cell robust z, rep 3: 0.508
- Call: inactive

Phs (Phaser) #2
- Wolbachia per cell robust z, rep 1: -2.24
- Wolbachia per cell robust z, rep 2: 0.944
- Wolbachia per cell robust z, rep 3: 0.165
- Call: inactive

Quoted from the listing, 2 entries:
Cog8 (Component of oligomeric golgi complex 8)
- Wolbachia per cell robust z, rep 1: 0.0369
- Wolbachia per cell robust z, rep 2: -0.0674
- Wolbachia per cell robust z, rep 3: -11.5
- Call: inactive

CG32719 #1
- Wolbachia per cell robust z, rep 1: -0.0433
- Wolbachia per cell robust z, rep 2: -0.403
- Wolbachia per cell robust z, rep 3: -0.329
- Call: inactive
